Results of unrelated studies side by side (data: NIAID ChemDB).

Shared fields: growth or infection tests; species: HIV-2; measure: EC50

Neighbouring rows are from separate reports.

| compound | cell line | strain | method | value |
|---|---|---|---|---|
| CC(C)(C)[Si](C)(C)OC[C@H]1O[C@@H](n2cc(I)c(=O)[nH]c2=O)[C@H](O[Si](C)(C)C(C)(C)C)C12OS(=O)(=O)C=C2N | CEM | - | syncytia | >5.7 µM |
| Cc1cc(C)cc(Nn2cnc(C)c2-c2ccccc2)c1 | MT-4 | ROD | cytopathic effect / MTT | >20.44 µM |
| COc1ccc(CCNc2nc(NC(=S)Nc3cccc(Cl)c3)nc(Oc3cc(=O)oc4ccccc34)n2)cc1OC | MT-4 | ROD | MTT | >16.78 µg/mL |
| O=C(Nc1sccc1S(=O)(=O)c1ccccc1)C(F)(F)F | CEM + CEM/O | ROD | cytopathic effect / MTT | >8 µg/mL |
| Cc1ccc(C)c(CS(=O)(=O)c2ccccn2)c1 | CEM | ROD | syncytia | ≥20 µg/mL |
| O=C(Nc1sccc1S(=O)(=O)c1ccc(F)cc1)C(F)(F)F | CEM + CEM/O | ROD | cytopathic effect / MTT | >1.6 µg/mL |
| CCc1nc([N+](=O)[O-])c(N2CCN(C(=O)CCC(N)=O)CC2)n1Cc1ccccc1 | MT-4 | ROD | syncytia | >93.7 µg/mL |
| Cc1ccccc1C(c1ccccc1)S(=O)(=O)c1cccc[n+]1[O-] | CEM | ROD | syncytia | >20 µg/mL |
| CCN(CC)CN1C(=O)C(=Nc2ccc(S(=O)(=O)Nc3ncnc(OC)c3OC)cc2)c2ccccc21 | MT-4 | ROD | cytopathic effect / MTT | >86 µg/mL |
| N#CCc1c(N)nc(N)nc1OCCOCP(=O)(O)O | CEM | ROD | syncytia | ≥300 µM |
| COc1cccnc1SCc1ccccc1 | CEM | ROD | syncytia | >20 µg/mL |
| CN(C)c1ccn([C@@H]2O[C@H](CO[Si](C)(C)C(C)(C)C)C3(OS(=O)(=O)C=C3N)[C@H]2O[Si](C)(C)C(C)(C)C)c(=O)n1 | CEM | - | syncytia | >166 µM |
| CC1(CO)CCC(Cn2cnc3c(N)nc(N)nc32)C1(C)C | CEM | - | cytopathic effect | 14 µg/mL |
| Cc1[nH]c(=S)n(Nc2ccccc2)c1-c1ccccc1 | MT-4 | ROD | cytopathic effect / MTT | >191 µM |
| Cc1ccc(S(=O)(=O)c2ccsc2N)cc1 | CEM + CEM/O | ROD | cytopathic effect / MTT | >20 µg/mL |
| CC1(CO)CCC(Cn2cnc3c(Cl)nc(N)nc32)C1(C)C | CEM | - | cytopathic effect | >4 µg/mL |
| Cc1ccc(C)c(C(CC(C)C)S(=O)(=O)c2cccc[n+]2[O-])c1 | CEM | ROD | syncytia | >4 µg/mL |
| CCOC(=O)CNc1nc(Nc2ccc(Cl)cc2)nc(Oc2cc(=O)oc3ccccc23)n1 | MT-4 | ROD | MTT | >45.6 µg/mL |
| N#CCc1c(N)nc(N)n(CCOCP(=O)(O)O)c1=O | CEM | ROD | syncytia | ≥300 µM |
| C=Cn1cc(C(=O)O)c(=O)c2ccc(N3CCN(c4ccccn4)CC3)nc21 | MT-4 | ROD | MTT | 0.21 µM |
| CCc1nc([N+](=O)[O-])c(N2CCN(C(=O)CSC)CC2)n1Cc1ccccc1.c1ccc2ccccc2c1 | MT-4 | ROD | syncytia | >3.99 µg/mL |
| Cc1cccc(Nn2cnc(C)c2-c2cccc(C#N)c2)c1 | MT-4 | ROD | cytopathic effect / MTT | >44.7 µM |
| COc1ccc(N(C)C(=O)[C@H](Cc2cc(F)cc(F)c2)NC(=O)CN2CCN(S(=O)(=O)c3cccc([N+](=O)[O-])c3)CC2=O)cc1 | MT-4 | ROD | MTT | 0.17 µM |
| CCOC(=O)CNc1nc(NC(=O)Nc2ccc(F)cc2)nc(Oc2cc(=O)oc3ccccc23)n1 | MT-4 | ROD | MTT | >125 µg/mL |
| COC(=O)c1ccccc1S(=O)(=O)c1ccsc1NC=O | CEM + CEM/O | ROD | cytopathic effect / MTT | 40 µg/mL |
| CCCCC(=O)Oc1ccc(COP(=O)(OCc2ccc(OC(=O)CCCC)cc2)OP(=O)(O)OC[C@@H]2C=C[C@H](n3cc(C)c(=O)[nH]c3=O)O2)cc1 | CEM | ROD | syncytia / microscopy | 2.9 µM |
| O=C1c2ccccc2N(Cc2ccccc2)S(=O)(=O)N1Cc1ccccc1 | MT-4 | ROD | cytopathic effect | ≥40 µM |
| CCCCCCCC/C=C\CCCCCCCC(=O)Oc1ccc(COP(=O)(OCc2ccc(OC(=O)CCCCCCC/C=C\CCCCCCCC)cc2)OP(=O)(O)OC[C@@H]2C=C[C@H](n3cc(C)c(=O)[nH]c3=O)O2)cc1 | CEM | ROD | syncytia / microscopy | 1.8 µM |
| O=[N+]([O-])c1ccc[n+]([O-])c1SCc1ccccc1 | CEM | ROD | syncytia | ≥20 µg/mL |
| COc1ncnc(NS(=O)(=O)c2ccc(N=C3C(=O)N(CN(C)C)c4ccccc43)cc2)c1OC | MT-4 | ROD | cytopathic effect / MTT | >2 µg/mL |
| COc1ccc(N(C)C(=O)[C@H](Cc2cc(F)cc(F)c2)NC(=O)CN2CCN(S(=O)(=O)c3cccc(Br)c3)CC2=O)cc1 | MT-4 | ROD | MTT | 0.35 µM |
| CC(=O)Nc1sc(Br)cc1S(=O)(=O)c1ccc(Cl)cc1 | CEM + CEM/O | ROD | cytopathic effect / MTT | >200 µg/mL |
| CCOC(=O)Cc1c(N)nc(N)nc1OCCOCP(=O)(O)O | CEM | ROD | syncytia | 78 µM |
| CCOC(=O)CSCC(=O)N1CCN(c2c([N+](=O)[O-])nc(CC)n2Cc2ccccc2)CC1 | MT-4 | ROD | syncytia | >10.64 µg/mL |
| O=C(Nc1sccc1S(=O)(=O)c1ccc(Cl)cc1)C(F)(F)C(F)(F)C(F)(F)F | CEM + CEM/O | ROD | cytopathic effect / MTT | >8 µg/mL |
| CCc1nc([N+](=O)[O-])c(N2CCN(C(=O)CCC(=O)OC)CC2)n1Cc1ccccc1 | MT-4 | ROD | syncytia | >38.1 µg/mL |
| COc1cc(CS(=O)c2cccc[n+]2[O-])cc(OC)c1OC | CEM | ROD | syncytia | >20 µg/mL |
| Cn1cc(C(=O)O)c(=O)c2cc(N)c(N3CCN(c4ccccn4)CC3)nc21 | MT-4 | ROD | MTT | 2.57 µM |
| CCOc1ccccc1CS(=O)c1cccc[n+]1[O-] | CEM | ROD | syncytia | >4 µg/mL |
| COc1ncnc(NS(=O)(=O)c2ccc(N=C3C(=O)N(CN4CCOCC4)c4ccccc43)cc2)c1OC | MT-4 | ROD | cytopathic effect / MTT | >2 µg/mL |
| Cn1cc(C(=O)O)c(=O)c2cncc(N3CCN(c4nc5ccccc5s4)CC3)c21 | MT-4 | ROD | MTT | >25.57 µM |
| CC(=O)Nc1sc([N+](=O)[O-])cc1S(=O)(=O)c1ccc(F)cc1 | CEM + CEM/O | ROD | cytopathic effect / MTT | >0.32 µg/mL |
| Cn1cc(C(=O)O)c(=O)c2cc(N)c(N3CCN(c4nc5ccccc5s4)CC3)nc21 | MT-4 | ROD | MTT | >0.077 µM |
| CCOc1cccnc1SCc1ccccc1 | CEM | ROD | syncytia | 43 µg/mL |
| CNc1nc(=O)n([C@@H]2O[C@H](CO[Si](C)(C)C(C)(C)C)C3(OS(=O)(=O)C=C3N)[C@H]2O[Si](C)(C)C(C)(C)C)cc1C | MT-4 | - | cytopathic effect | >33 µM |
| Cc1ccc(C)c(C(C#N)Sc2cccc[n+]2[O-])c1 | CEM | ROD | syncytia | >4 µg/mL |
| CCOP(=O)(CN[C@@H](Cc1ccccc1)[C@H](O)CN(CC(C)C)S(=O)(=O)c1ccc(OC)cc1)OCC | MT-4 | ROD | MTT | >64.5 µg/mL |
| CCc1nc([N+](=O)[O-])c(N2CCN(C(=O)c3ccc([N+](=O)[O-])cc3)CC2)n1Cc1ccccc1 | MT-4 | ROD | syncytia | >86 µg/mL |
| O=C1c2ccccc2N(Cc2ccc(Cl)c(Cl)c2)S(=O)(=O)N1Cc1ccccc1 | MT-4 | ROD | cytopathic effect | ≥10 µM |
| COc1ccc(C)cc1CS(=O)(=O)c1cccc[n+]1[O-] | CEM | ROD | syncytia | 40 µg/mL |
| CCOC(=O)c1nnsc1Nc1ccccc1Nc1snnc1C(=O)OCC | - | ROD | - | 26 µM |
| Cc1cn([C@H]2C=C[C@@H](CO)O2)c(=O)[nH]c1=O | CEM | ROD | syncytia / microscopy | 2.3 µM |
| Cc1ccc(C)c(C(CC(=O)O)S(=O)(=O)c2cccc[n+]2[O-])c1 | CEM | ROD | syncytia | >20 µg/mL |
| COc1ccc(N(C)C(=O)[C@H](Cc2cc(F)cc(F)c2)NC(=O)CN2CCN(S(=O)(=O)c3cccc(C)c3)CC2=O)cc1 | MT-4 | ROD | MTT | 0.12 µM |
| CCCCCCCCOc1ccc(/C=C(/C#N)Sc2cccc[n+]2[O-])cc1 | CEM | ROD | syncytia | >20 µg/mL |
| Nc1nc(N)n(CCOCP(=O)(O)O)c(=O)c1-c1ccccc1 | CEM | ROD | syncytia | ≥300 µM |
| Cc1cn([C@H]2C=C[C@@H](CO)O2)c(=O)[nH]c1=O | CEM | - | cytopathic effect | 0.77 µM |
| COc1ccc(N(C)C(=O)[C@H](Cc2cc(F)cc(F)c2)NC(=O)CN2CCN(S(=O)(=O)c3ccccc3[N+](=O)[O-])CC2=O)cc1 | MT-4 | ROD | MTT | 1.19 µM |
| O=S(=O)(Cc1c(Cl)ccc(Cl)c1Cl)c1cccc[n+]1[O-] | CEM | ROD | syncytia | ≥4 µg/mL |
| COCCOCCOCCOC(=O)C1(C(=O)OCCOCCOCCOC)C2c3cc4c5c6c7c8c9c%10c(cc%11c9c9c(cc(c%12c9c8c5c3-%12)C21)C%11)C=CC1(C=C6C4)CN(CCOCCOCCN)CC%1071 | CEM | ROD | cytopathic effect | >4 µM |
| Cc1ccc(C)c(C(Cc2ccccc2)S(=O)(=O)c2cccc[n+]2[O-])c1 | CEM | ROD | syncytia | >4 µg/mL |
| CCOC(=O)CNc1nc(NC(=O)Nc2ccc(Cl)cc2)nc(Oc2cc(=O)oc3ccccc23)n1 | MT-4 | ROD | MTT | >125 µg/mL |
| Cc1ccc(C)c(CSc2c(Cl)ccc[n+]2[O-])c1 | CEM | ROD | syncytia | >20 µg/mL |
| CC(C)(C)[Si](C)(C)OC[C@H]1O[C@@H](n2ccc(N)nc2=O)[C@H](O[Si](C)(C)C(C)(C)C)C12OS(=O)(=O)C=C2N | MT-4 | - | cytopathic effect | >350 µM |
| Cc1ncn(Nc2ccccc2)c1C | MT-4 | ROD | cytopathic effect / MTT | >351 µM |
| C=Cn1cc(C(=O)O)c(=O)c2ccc(N3CCN(c4cccc(C(F)(F)F)c4)CC3)nc21 | MT-4 | ROD | MTT | 0.78 µM |
| COc1ncnc(NS(=O)(=O)c2ccc(N=C3C(=O)Nc4ccccc43)cc2)c1OC | MT-4 | ROD | cytopathic effect / MTT | >104 µg/mL |
| Cc1ccc(C)c(C(Cl)S(=O)(=O)c2cc(C)cc[n+]2[O-])c1 | CEM | ROD | syncytia | >4 µg/mL |
| COC(=O)C(c1cc(C)ccc1C)S(=O)(=O)c1cccc[n+]1[O-] | CEM | ROD | syncytia | 6.7 µg/mL |
| Nc1nc(N)n(CCOCP(=O)(O)O)c(=O)c1C1CC1 | CEM | ROD | syncytia | ≥300 µM |
| Nn1cc(C(=O)O)c(=O)c2ccc(N3CCN(c4ccccn4)CC3)nc21 | MT-4 | ROD | MTT | >15.69 µM |
| CCc1nc([N+](=O)[O-])c(N2CCN(C(=O)c3ccc(Cl)cc3Cl)CC2)n1Cc1ccccc1 | MT-4 | ROD | syncytia | >14.5 µg/mL |
| CCOc1ccc(NC(=S)Nc2nc(NCCc3ccc(OC)c(OC)c3)nc(Oc3cc(=O)oc4ccccc34)n2)cc1 | MT-4 | ROD | MTT | 10 µg/mL |
| CC1(CO)CCC(Cn2nnc3c(N)nc(N)nc32)C1(C)C | CEM | - | cytopathic effect | 80 µg/mL |
| Cc1ccc(C)c(C(CO)S(=O)(=O)c2ccccn2)c1 | CEM | ROD | syncytia | >100 µg/mL |
| Cc1[nH]c(=S)n(Nc2cccc(Cl)c2)c1-c1cccc(C#N)c1 | MT-4 | ROD | cytopathic effect / MTT | >99.4 µM |
| C=Cn1cc(C(=O)O)c(=O)c2ccc(N3CCN(c4nc5ccccc5s4)CC3)nc21 | MT-4 | ROD | MTT | 0.025 µM |
| CCOC(=O)CNc1nc(NC(=O)Nc2cccc(C)c2)nc(Oc2cc(=O)oc3ccccc23)n1 | MT-4 | ROD | MTT | >14.23 µg/mL |
| Cc1cn([C@@H]2O[C@H](CO[Si](C)(C)C(C)(C)C)C3(OS(=O)(=O)C=C3N)[C@H]2O[Si](C)(C)C(C)(C)C)c(=O)nc1N | CEM | - | syncytia | >13.5 µM |
| COc1ccc(N(C)C(=O)[C@H](Cc2cc(F)cc(F)c2)NC(=O)CN2CCN(S(=O)(=O)c3ccc([N+](=O)[O-])cc3)CC2=O)cc1 | MT-4 | ROD | MTT | 0.48 µM |
| Cc1cccc(CS(=O)c2cccc[n+]2[O-])c1 | CEM | ROD | syncytia | >20 µg/mL |
| CCc1c(C(=O)c2cc(C)cc(C)c2)n(CC2CC2)c(=O)[nH]c1=O | CEM | ROD | XTT | 0.6 µM |
| c1ccc(CSc2ccccn2)cc1 | CEM | ROD | syncytia | >20 µg/mL |
| CCOC(=O)CNc1nc(NC(=O)Nc2ccc(OCC)cc2)nc(Oc2cc(=O)oc3ccccc23)n1 | MT-4 | ROD | MTT | >125 µg/mL |
| N#C/C(=C/c1c(Cl)cccc1Cl)S(=O)(=O)c1cccc[n+]1[O-] | CEM | ROD | syncytia | >4 µg/mL |
| O=S1(=O)N=C(OCc2ccccc2)c2ccccc2N1Cc1ccccc1 | MT-4 | ROD | cytopathic effect | 20 µM |

An empty or dashed field is not shown. ECn is the concentration giving n% inhibition of infection, replication or growth.